6 molecules from the supplement of paper PMC12637763 can be followed below.

B1: HIV-1 Env, rebound clone, placebo arm (protein)
chain: MRVKGIRKSCQRLWRWGIMLLGMLMISSATEKLWVTVYYGVPVWKEANTTLFCASDAKAYDTEAHNVWATHACVPTDPNPQELDLENVTENFNMWKNGMVEQMHEDVISLWDQSLKPCVKLTPLCVTLNCTNDVNLRVNSSNSNSSINSSSSISNSSIEEKGEIKNCSFNITTSIRDKVTKEYALFYRLDIVSIKDDKSDNSNNTNTRYRLINCNTSVITQACPKVSFEPIPIHYCAPAGFAILKCKDREFNGSGTCQNVSTVQCTHGIKPVVSTQLLLNGSLAEGEVVIRSENFSDNAKTIIVQLSRPVVINCTRPNNNTRKSIHIAPGRTFYATGDIIGDIRQAHCNISKRDWNKTLKEVKGKLEKQYNKTILYNQSSGGDPEIVFHTFNCAGEFFYCNTTNLFNNNITINNGTNGTNTNENITLPCRIKQIINLWQEVGKAMYAPPIKGQIRCSSNITGLLLTRDGGLNENRTNDTVRPGGGDMRDNWRSELYRYKVVEIEPLGIAPTKAKRRVVQREKRAVGAIGAMFLGLLGAAGSTMGAASITLTVQARLVLSGIVQQQNNLLRAIEAQQHLLQLTVWGIKQLQARVLAVERYLKDQQLLGIWGCSGKLICTTSVPWNSSWSNRSLEYIWNNMTWMQWEREIDNYTGKIYTLIEEAQHKQEENELELLKLDEWSNLWNWFDISKWLWYIKIFIMIVGGLIGLRIVFAVISIVNRVRKGYSPLSFQTHFPAPRGPDRPGGTEEEGGDRDRDRSTRLVDGFLALVWDDLRSLILFLYHHLRDLLLIITRIVGLLGRRGWEILKYWSRELKLSAISLYNATAVAVAEGTDRVIEVVQRIFRGVLHVPRRIRQGLERILV
B2: HIV-1 Env, rebound clone, placebo arm (protein)
chain: MRVKGIRKSCQRLWRWGIMLLGMLMISSATEKLWVTVYYGVPVWKEANTTLFCASDAKAYDTEAHNVWATHACVPTDPNPQELDLENVTENFNMWKNGMVEQMHEDVISLWDQSLKPCVKLTPLCVTLNCTNDVNLRVNSSNSNSSINSSSSISNSSIEEKGEIKNCSFNITTSIRDKVTKEYALFYRLDIVSIKDDKSDNSNNTNTRYRLINCNTSVITQACPKVSFEPIPIHYCAPAGFAILKCKDREFNGSGTCQNVSTVQCTHGIKPVVSTQLLLNGSLAEGEVVIRSENFSDNAKTIIVQLSRPVVINCTRPNNNTRKSIHIAPGRTFYATGDIIGDIRQAHCNISKRDWNKTLKEVKGKLEKQYNKTILFNQSSGGDPEIVFHTFNCAGEFFYCNTTNLFNNNITINNGTNGTNTNENITLPCRIKQIINLWQEVGKAMYAPPIKGQIRCSSNITGLLLTRDGGLNENRTNDTVRPGGGDMRDNWRSELYRYKVVKIEPLGIAPTKAKRRVVQREKRAVGAIGAMFLGLLGAAGSTMGAASITLTVQARLVLSGIVQQQNNLLRAIEAQQHLLQLTVWGIKQLQARVLAVERYLKDQQLLGIWGCSGKLICTTSVPWNSSWSNRSLEYIWNNMTWMQWEREIDNYTGKIYTLIEEAQHKQEENELELLKLDEWSNLWNWFDISKWLWYIKIFIMIVGGLIGLRIVFAVISIVNRVRKGYSPLSFQTHFPAPRGPDRPGGTEEEGGDRDRDRSTRLVDGFLALVWDDLRSLILFLYHHLRDLLLIITRIVGLLGRRGWEILKYWWNLLQYWSRELKLSAISLYNATAVAVAEGTDRVIEVVQRIFRGVLHVPRRIRQGLERILV
B3: HIV-1 Env, rebound clone, placebo arm (protein)
chain: B2 chain with K502E, V702I
B4: HIV-1 Env, rebound clone, placebo arm (protein)
chain: B2 chain with L464F, K502E
B5: HIV-1 Env, rebound clone, placebo arm (protein)
chain: B2 chain with K502E, V856I
B6: HIV-1 Env, rebound clone, placebo arm (protein)
chain: B2 chain with K502E, R523K

Numbering of substitutions follows the chain as printed. Some of the results follow. Env chains of viruses from a treatment-interruption trial, translated from the printed DNA. IC50 / IC80 of two broadly neutralizing antibodies; lower = more sensitive virus; >50 µg/ml means not reached and <0.001 µg/ml is below the lowest dose. No active / inactive call.

One test has as its target antibody 10-1074. Nature of the test: neutralization IC50; higher = virus less sensitive to the antibody. Here is the method:
(§1)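 Pseudovirus bearing the Env chain mixed with antibody, from 50 µg/ml in fivefold dilutions, on TZM-bl reporter cells, in duplicate.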
For B1, the “neutralization IC50” value amounted to 0.013 µg/mL.

With B2, the “neutralization IC50” value stood at 0.016 µg/mL.

As to B3, the “neutralization IC50” value turned out to be 0.022 µg/mL.

Turning to B4, the “neutralization IC50” value is 0.014 µg/mL.

In the case of B5, the “neutralization IC50” value stood at 0.017 µg/mL.

Consider B6, for which the “neutralization IC50” value was found to be 0.018 µg/mL.

The target in another test is antibody 3BNC117. The description is as above. Here is the method: as §1
Turning to B1, the “neutralization IC50” value was 0.074 µg/mL.

In the case of B2, the “neutralization IC50” value was determined as 0.076 µg/mL.

As for B3, the “neutralization IC50” value came to 0.129 µg/mL.

Take B4: the “neutralization IC50” value is 0.063 µg/mL.

For B5, the “neutralization IC50” value came to 0.081 µg/mL.

Regarding B6, the “neutralization IC50” value was found to be 0.099 µg/mL.

Another test concerns the target antibody 10-1074. The experiment in a line: neutralization IC80; higher = virus less sensitive to the antibody. Here is the method:
as §1
Take B1: the “neutralization IC80” value worked out at 0.05 µg/mL.

For the molecule B2, the “neutralization IC80” value was 0.036 µg/mL.

Regarding B3, the “neutralization IC80” value worked out at 0.06 µg/mL.

In the case of B4, the “neutralization IC80” value is 0.048 µg/mL.

As to B5, the “neutralization IC80” value is 0.048 µg/mL.

For the molecule B6, the “neutralization IC80” value is 0.047 µg/mL.

In a further test the target is antibody 3BNC117. The description is as above. Here is the method:
as §1
Consider B1, for which the “neutralization IC80” value came to 0.347 µg/mL.

Turning to B2, the “neutralization IC80” value amounted to 0.23 µg/mL.

On to B3, for which the “neutralization IC80” value was 0.339 µg/mL.

As to B4, the “neutralization IC80” value was determined as 0.168 µg/mL.

Regarding B5, the “neutralization IC80” value came out at 0.283 µg/mL.

With B6, the “neutralization IC80” value stood at 0.281 µg/mL.
